Experimental findings from US20240199725A1 (KOREA UNIVERSITY RESEARCH AND BUSINESS FOUNDATION, published 2024) are described below.

The experiment has as its target T1, COVID-19-RBD-GST (SARS-CoV-2 (COVID-19 virus), wild type).
T1 construct: also called dimeric RBD fused with a GST tag; COVID-19-RBD-GST-Alexa488 probe
The experiment can be described thus: flow cytometry, variant on spheroplasts, 50 nM COVID-19 RBD-Alexa 488 antigen.

B1: VH variant JS-VH 4 (other)
VH: QVQLQESGGGVVQPGESLRLSCAASGFTFEDYAMHWVRQPPGKGLEWVSLISGDGFFTHYADSVEGRFTVSRDNSKNSLYLQMNSLRAEDTAVYYCARDSFGGHLDLWGQGTLVTVSS
B1: the binding result is recorded as “binds”.
